A mixed list of measured activities; the numbers were collected in NIAID ChemDB.

All rows: toxicity to cultured cells; cells: MOLT-4; measure: CC50

CCn: concentration that lowers growth or viability of the cells by n%.

smiles	method	result
CCNC(=O)c1cc(C)ccc1NC(=O)C12CC3CC(CC(C3)C1)C2		34.6 µM
NC(=O)c1c[se]c([C@@H]2O[C@H](CO)[C@@H](O)[C@H]2O)n1		0.6 µM
COc1ccc(Cc2nccc3cc(OC)c(OC)cc23)cc1OC		4 µg/mL
NNC(=O)c1cc(Cl)ccc1NC(=O)C12CC3CC(CC(C3)C1)C2		8.2 µM
Nc1ccn([C@H]2CC[C@@H](CO)O2)c(=O)n1		10 µM
Nc1nc2c(ncn2[C@H]2CO[C@@H](CO)O2)c(=O)[nH]1		>500 µM
CCNC(=O)c1cc(OC)c(OC)cc1NC(=O)C12CC3CC(CC(C3)C1)C2		26.4 µM
NC(=O)c1csc(C2OC(CO)C(O)C2O)c1		2.9 µM
CCn1cc(C(=O)O)c(=O)c2cc(F)c(N3CCN(c4ccccc4OC)CC3)c(OC(F)F)c21		6.6 µM
CCCNC(=O)c1cc(Cl)ccc1NC(=O)C12CC3CC(CC(C3)C1)C2		22.4 µM
CCCCN1C[C@H](O)[C@@H](O)[C@H](O)[C@H]1CO		>500 µg/mL
CCOCn1c(Sc2cc(C)cc(C)c2)c(CC)c(=O)[nH]c1=S		>100 µM
O=C(CCCCCCCCCCC(=O)Nc1cc(S(=O)(=O)O)cc2cc(S(=O)(=O)O)cc(O)c12)Nc1cc(S(=O)(=O)O)cc2cc(S(=O)(=O)O)cc(O)c12		>500 µM
CCNC(=O)c1cc(Cl)ccc1NC(=O)C12CC3CC(CC(C3)C1)C2		18.6 µM
CCCCCCCCCCCCCCCC(=O)Nc1cc(S(=O)(=O)O)cc2cc(S(=O)(=O)O)cc(O)c12		230 µM
O=C(N/N=C/c1cccs1)c1cc(Cl)ccc1NC(=O)C12CC3CC(CC(C3)C1)C2		50.6 µM
COc1ccccc1N1CCN(c2c(F)cc3c(=O)c(C(=O)O)cn(C4CC4)c3c2OC(F)F)CC1		6.7 µM
Cc1ccc(NC(=O)C23CC4CC(CC(C4)C2)C3)c(C(=O)N/N=C/c2ccc(C)o2)c1		45.6 µM
CN=C1CN=C(c2ccc[nH]2)c2cc(Cl)ccc2N1		2.8 µM
Nc1nc2c(ncn2[C@H]2C=C[C@@H](CO)O2)c(=O)[nH]1		35 µM
CCOCn1c(Sc2cc(C)cc(C)c2)c(CC)c(=O)[nH]c1=O		>100 µM
CCCCCCCCCCCCSCC(COP(=O)([O-])OCC[N+](C)(C)C)OCCCCCCCCO	trypan blue	>100 µM
CC(C)(C)OC(=O)[C@@H]1CCCN1C[C@@H](O)[C@H](Cc1ccccc1)NC(=O)[C@H](CC(N)=O)NC(=O)OCc1ccccc1		214 µg/mL
Nc1nc(=O)n([C@@H]2CC[C@H](CO)O2)cc1F		22 µM
O=C(O)C1=CC(=C(c2ccc(O)c(C(=O)O)c2)c2ccc(O)c(C(=O)O)c2)C=CC1=O		82 µg/mL
CCCN(C)C(=O)Oc1nsnc1-c1c(Cl)ccc(N)c1Cl		54 µM
Cc1cn([C@H]2C[C@H](N=[N+]=[N-])[C@@H](CO)O2)c(=O)[nH]c1=O	trypan blue	>100 µM
CCOP(=O)(N[C@@H](C)C(=O)OC)OC[C@H]1O[C@@H](n2cc(C)c(=O)[nH]c2=O)C[C@@H]1N=[N+]=[N-]		250 µg/mL
Cc1cn([C@H]2C[C@H](N=[N+]=[N-])[C@@H](CO)O2)c(=O)[nH]c1=O		3 µM
Nc1ccn([C@H]2CC[C@@H](CO)O2)c(=O)n1		0.1 µg/mL
CC(C)=CCN1Cc2cccc3[nH]c(=S)n(c23)C[C@@H]1C		518 µM
CN=C1CN=C(c2ccc[nH]2)c2cc(Cl)ccc2N1		1.8 µg/mL
Nc1ccn([C@H]2CC[C@@H](CO)O2)c(=O)n1		0.6 µM
O[C@H]1[C@H](O)[C@@H](O)CN2CC[C@H](O)[C@H]12		>500 µg/mL

For reference, 4 entries again:

smiles	method	result
Cc1cn([C@H]2C[C@H](N=[N+]=[N-])[C@@H](CO)O2)c(=O)[nH]c1=O	trypan blue	>100 µM
Nc1nc2c(ncn2[C@H]2C=C[C@@H](CO)O2)c(=O)[nH]1		35 µM
Nc1ccn([C@H]2CC[C@@H](CO)O2)c(=O)n1		0.6 µM
O[C@H]1[C@H](O)[C@@H](O)CN2CC[C@H](O)[C@H]12		>500 µg/mL

An empty or dashed field is not shown. Conditions beyond the fields shown may differ between rows.